In ChEMBL document CHEMBL6087416, “Discovery of novel fused-heterocycle-bearing diarypyrimidine derivatives as HIV-1 potent NNRTIs targeting tolerant region I for enhanced antiviral activity and resistance profile” (Eur J Med Chem, 2025):

Molecular target: Human immunodeficiency virus type 1 reverse transcriptase (Human immunodeficiency virus 1, UniProt Q72547)
Assay: Inhibition of wild type HIV-1 Reverse transcriptase incubated for 1 hrs by ELISA analysis

Q: With `Cc1cc(C#N)cc(C)c1Oc1nc(Nc2ccc(C#N)cc2)nc(N)c1Br` [ETRAVIRINE] as the compound, how does the IC50 read?
A: 30 nM
